Results of unrelated studies side by side (data: NIAID ChemDB).

Shared fields: whole-cell or culture tests; agent: Mycobacterium tuberculosis

Inhibition is in % at the dose shown (toxicity tests: loss of growth or viability).

SMILES | strain | method | measure | dose | mutations | value
O=C1c2cc(F)ccc2-n2c1nc1cnccc1c2=O | H37Rv |  | MIC |  |  | 0.13 µg/mL
C=CCN1C(=O)C(C)S/C1=N\N=C1/C(=O)Nc2ccccc21 | H37Rv |  | MIC |  |  | >12.5 µg/mL
Cc1cn(CC2=NC3CCCCC3N2)c(=O)[nH]c1=O | H37Rv | BACTEC | inhibition | 6.25 µg/mL |  | 30%
Nc1ccc(C(=O)O)c(O)c1 | H37Rv |  | Median MIC |  |  | 0.75 µg/mL
CCn1c(SCC(=O)N=Nc2c(O)[nH]c3ccccc23)nc2ccc(Cl)cc2c1=O | H37Rv |  | MIC |  |  | >12.5 µg/mL
CO[C@@]12[C@H](COC(N)=O)C3=C(C(=O)C(C)=C(N)C3=O)N1C[C@H]1[C@@H]2N1C(=O)/C=C/c1ccccc1 | H37Rv | BACTEC | inhibition | 12.5 µg/mL |  | 100%
NNC(=O)c1ccncc1 | MDR-6233 | resazurin | MIC |  |  | 4 µg/mL
CO[C@H]1/C=C/O[C@@]2(C)Oc3c(C)c(O)c4c(O)c(c5c(c4c3C2=O)NC2(CCN(CC(C)C)CC2)N=5)=NC(=O)/C(C)=C\C=C\[C@H](C)[C@H](O)[C@@H](C)[C@@H](O)[C@@H](C)[C@H](OC(C)=O)[C@@H]1C | H37Ra |  | Median MIC |  |  | ≤0.003 µg/mL
N#C[B][n+]1ccc(C(=O)NNCc2ccc(F)cc2)cc1 |  | BACTEC | inhibition | 0.5 µM |  | 0%
CO[C@H]1/C=C/O[C@@]2(C)Oc3c(C)c(O)c4c(O)c(c(/C=N/N5CCN(C6CCCC6)CC5)c(O)c4c3C2=O)NC(=O)/C(C)=C\C=C\[C@H](C)[C@H](O)[C@@H](C)[C@@H](O)[C@@H](C)[C@H](OC(C)=O)[C@@H]1C | L215 |  | MIC |  |  | 0.05 µg/mL
C=CCNC(=S)/N=C/C(C(=O)Nc1ccc(Cl)cc1)=C(\C)O | H37Rv | resazurin | inhibition | 6.25 µg/mL |  | 5%
NNC(=O)c1ccncc1 | H37Rv |  | Median MIC |  |  | 0.05 µg/mL
O=C(NNc1cccc([N+](=O)[O-])c1)N1CCN(c2nc(N3CCN(c4ccccc4)CC3)c3ccccc3n2)CC1 | H37Rv | BACTEC / fluorescence | inhibition | 6.25 µg/mL |  | 0%
CO[C@@H]1C[C@@H](C[C@H]2CC[C@H](C)[C@H]([C@@H](C)C(=O)O)O2)O[C@]2(O[C@](C)([C@H]3CC[C@@](C)([C@@H]4O[C@@H]([C@H]5O[C@@](O)(CO)[C@H](C)C[C@@H]5C)C[C@@H]4C)O3)C[C@H]2C)[C@@H]1C | CS-R |  | MIC |  |  | 1.6 µg/mL
Cc1ccccc1NNC(=O)N1CCN(c2nc(N3CCN(c4ccccc4)CC3)c3ccccc3n2)CC1 | H37Rv | agar / visual reading | MIC |  |  | 200 µg/mL
O=C1c2cc(I)ccc2-n2c1nc1ncccc1c2=O | 10038 RFLP:W |  | MIC |  |  | 0.06 µg/mL
O=C(O)c1ccc(NNC(=O)N2CCN(c3nc(N4CCN(c5ccccc5)CC4)c4ccccc4n3)CC2)cc1 | H37Rv | BACTEC / fluorescence | inhibition | 6.25 µg/mL |  | 0%
Nc1cc(=O)[nH]c(N2CCN(c3ccccc3)CC2)n1 | H37Rv | BACTEC | MIC bound |  |  | >12.5 µg/mL
O=C(O)C(=O)O.OC(CNCCc1ccccc1)CN1c2ccccc2Sc2ccccc21 | STB-825 | resazurin | MIC |  |  | 4 µg/mL
CCCCCCCCCCCCCCCc1cc(=O)[nH]c2ccc(C)cc12 | H37Rv | BACTEC | MIC bound |  |  | >6.25 µg/mL
CCCCN1C(=O)C(C)S/C1=N/N=C1\C(=O)Nc2ccc(Br)cc21 | H37Rv |  | EC50 |  |  | >12 µg/mL
CC(C)(C)OC(=O)CCC(NC(=O)OCC1c2ccccc2-c2ccccc21)C(=O)NC(Cc1c[nH]c2ccccc12)C(=O)NC(CCCCNC(=O)OC(C)(C)C)C(=O)N1CCCC1C(=O)NCC(N)=O | H37Rv | resazurin | inhibition | 6.25 µg/mL |  | -8%
NC(=S)c1ccc(Cl)cc1 | H37Rv |  | MIC |  |  | 512 µM
CC1COc2c(N3CCN(C)CC3)c(F)cc3c(=O)c(C(=O)O)cn1c23 | H37Ra |  | Median MIC |  |  | 0.5 µg/mL
COc1ccccc1NNC(=O)N1CCN(c2nc(N3CCN(c4ccccc4)CC3)c3ccccc3n2)CC1 | H37Rv | agar / visual reading | MIC |  |  | 25 µg/mL
NC(=O)c1cncc(-n2ccnc2)n1 | Ethionamide-resistant |  | MIC |  |  | 1000 µg/mL
CCCCOc1c(C(C)=O)cc(N)c2nccc(CC)c12 | H37Rv |  | inhibition | 6.25 µg/mL |  | 0%
CCCCCCCCc1ccc2c(c1)C(=O)c1nc3ccncc3c(=O)n1-2 | TN1195RFLF:N2 (MDR) |  | MIC |  |  | 0.03 µg/mL
O=C(NCCCCCCNC(=O)OCOC(=O)NCCCCCCNC(=O)Nc1ccc(SCCO)cc1)Nc1ccc(SCCO)cc1 | H37Rv | BACTEC | inhibition | 12.5 µg/mL |  | -12%
CC(C)(C)NC(=O)C1c2ccccc2CCN1c1cc2c(cc1[N+](=O)[O-])c(=O)c(C(=O)O)cn2C1CC1 | ATCC35801 |  | MIC |  |  | 3.27 µM
O=C(O)c1cnccn1 | M6669 |  | MIC |  |  | 480 µg/mL
COC(=O)c1cncc(N2CC(C)OC(C)C2)n1 | Isoniazid-resistant |  | MIC |  |  | 62.5 µg/mL
CCCCCCCCCCCCN1C(=O)C(CC(=O)O)SC12CCN(C(=O)C(N)C(C)CC)CC2 | H37Ra | resazurin | inhibition | 25 µg/mL |  | 97%
CN(CCOC(=O)CCC(=O)O)c1ccc2c(=O)n3c(nc2c1)C(=O)c1cc(Cl)ccc1-3 | H37Rv |  | MIC |  |  | 1 µg/mL
O=C(CNC(=O)c1ccc(Cl)cc1Cl)NNC(=O)Nc1ccccc1F | H37Rv | BACTEC | MIC bound |  |  | >12.5 µg/mL
CCCCCCCOc1c(C(C)=O)cc(N)c2nccc(CC)c12 | H37Rv |  | inhibition | 6.25 µg/mL |  | 73%
COc1ccc(CCc2cc(OC)c3ccccc3n2)cc1OC | MT10 |  | MIC |  |  | >100 µg/mL
CCN(CC)C(=O)C1CCCN(c2cc3c(cc2[N+](=O)[O-])c(=O)c(C(=O)O)cn3C(C)(C)C)C1 | ATCC35801 |  | MIC |  |  | 0.43 µM
CCCCCCCCc1ccc2c(c1)C(=O)c1nc3cc(CCCCCCCC)ccc3c(=O)n1-2 | H37Rv |  | MIC |  |  | >8 µg/mL
NC1(C(=O)O)Cc2ccccc2B(O)OC1=O | H37Rv | BACTEC | MIC bound |  |  | >12.5 µg/mL
Cc1cc(C(N)=S)ccn1 | H37Rv (drug-susceptible) |  | MIC |  |  | 64–128 µM
CO[C@H]1/C=C/O[C@@]2(C)Oc3c(C)c(O)c4c(O)c(c(/C=N/N5CCN(C)CC5)c(O)c4c3C2=O)NC(=O)/C(C)=C\C=C\[C@H](C)[C@H](O)[C@@H](C)[C@@H](O)[C@@H](C)[C@H](OC(C)=O)[C@@H]1C | 22 strains (rifampicin-susceptible) |  | MIC90 |  |  | 0.39 µg/mL
CO/N=C(\C)c1cccc(F)c1NS(=O)(=O)c1nc2c(F)cnc(OC)n2n1 | M23 | visual reading | MIC50 |  | INH RIF resistant | 1 µM
CCCCCCCCN1C(=O)CS(=O)(=O)C12CCCCC2 | H37Ra | resazurin | inhibition | 25 µg/mL |  | 81%
O=C1OC(c2ccccc2)=N/C1=C\c1ccc(/C=C2\N=C(c3ccccc3)OC2=O)cc1 | H37Rv | BACTEC | MIC bound |  |  | >12.5 µg/mL
NC(=S)c1ccc(N)cc1 | H37Rv (drug-susceptible) |  | MIC |  |  | 256 µM
CC1CCCCN1c1cncc(C(N)=O)n1 | H37Rv |  | MIC |  |  | 500 µg/mL
CCCCCOc1c(C(C)=O)cc([N+](=O)[O-])c2nccc(CC)c12 | H37Rv |  | inhibition | 6.25 µg/mL |  | 48%
CCOc1c(N=Nc2ccccc2OC)c(C)nn1C(=S)S | H37Rv | BACTEC | MIC bound |  |  | >12.5 µg/mL
Cc1ccccc1Sc1nnc(N2CCN(c3nc(N4CCN(c5ccccc5)CC4)c4ccccc4n3)CC2)o1 | H37Rv | agar / visual reading | MIC |  |  | 6.25 µg/mL
COc1c(C(C)=O)cc([N+](=O)[O-])c2nc(C(C)C)ccc12 | H37Rv |  | MIC |  |  | >6.25 µg/mL
CC1S/C(=N\N=C2/C(=O)Nc3ccccc32)N(c2ccccc2)C1=O | H37Rv |  | MIC |  |  | >12.5 µg/mL
CC(C)CCCC(C)C1CCC2C3CCC4C5Oc6ccccc6N=C5CCC4(C)C3CCC12C | H37Rv | BACTEC | inhibition | 12.5 µg/mL |  | -2%
S=C(NCN1CCOCC1)c1cncc(-n2ccnc2)n1 | Ethionamide-resistant |  | MIC |  |  | 500 µg/mL
O=C(NNc1ccccc1)C1C2CC3OC(=O)C1C3C2 | H37Rv | BACTEC | MIC bound |  |  | >12.5 µg/mL
NC[C@H]1O[C@H](O[C@H]2[C@H](O)[C@@H](O[C@H]3O[C@H](CO)[C@@H](O)[C@H](N)[C@H]3O)[C@H](N)C[C@@H]2N)[C@H](N)C[C@@H]1O | H37Ra |  | Median MIC |  |  | 8 µg/mL
CN1CCN(c2ccc3c(=O)n4c(nc3c2)C(=O)c2cc(F)ccc2-4)CC1 | H37Rv |  | MIC |  |  | 0.13 µg/mL
O=C(O)c1cn(C2CC2)c2cc(N3CCC(n4c(=O)[nH]c5cc(Cl)ccc54)CC3)c([N+](=O)[O-])cc2c1=O | ATCC35801 |  | MIC |  |  | 3.14 µM
NC[C@@H]1O[C@H](O[C@H]2[C@@H](O)[C@H](O[C@@H]3[C@@H](O)[C@H](N)C[C@H](N)[C@H]3O[C@H]3O[C@H](CO)[C@@H](O)[C@H](O)[C@H]3N)O[C@@H]2CO)[C@H](N)[C@@H](O)[C@@H]1O | H37Ra |  | Mean MIC |  |  | 3.5 µg/mL
Nc1nc2c(c(=O)[nH]1)CN(CCCN1CCOCC1)CN2 | H37Rv | BACTEC | inhibition | 12.5 µg/mL |  | 1%
NNC(=O)c1ccncc1 | Isolate 2225 |  | MIC |  |  | >4 µg/mL
C=CCNC(=S)N=Nc1c(O)[nH]c2ccc(Br)cc12 | H37Rv |  | EC50 |  |  | <12 µg/mL
O=C(O)c1cn(C2CC2)c2cc(N3CCSCC3)c(F)cc2c1=O | ATCC35801 |  | MIC |  |  | 8.98 µM
CCCCCCCCN1C(=S)CSC12CCCCC2 | H37Ra | resazurin | EC50 |  |  | >25 µg/mL
CN(CCO)c1ccc2c(=O)n3c(nc2c1)C(=O)c1cc(Cl)ccc1-3 | H37Rv |  | MIC |  |  | 0.13 µg/mL
Cc1nc(Nc2ccccc2)sc1C(=O)NNc1ccc([N+](=O)[O-])cc1[N+](=O)[O-] | H37Rv | resazurin | inhibition | 6.25 µg/mL |  | 44%
CO[C@H]1/C=C/O[C@@]2(C)Oc3c(C)c(O)c4c(=O)c(c5oc6cc(N7CCN(CC(C)C)CC7)cc(=O)c6nc5c4c3=C2O)NC(=O)/C(C)=C\C=C\[C@H](C)[C@H](O)[C@@H](C)[C@@H](O)[C@@H](C)[C@H](OC(C)=O)[C@@H]1C | H37Rv |  | MBC |  |  | 0.031 µg/mL
CC1=C(Br)C(=O)C(C(C)C)=CC1=O | H37Rv | BACTEC | MIC |  |  | 32 µg/mL
Nc1nc(-n2cc(C(=O)O)c(=O)c3cc(F)c(N4CC(O)C4)c(Cl)c32)c(F)cc1F | 23 strains (rifampicin-resistant) |  | MIC50 |  |  | 1.56 µg/mL
O=C(O)c1cn(C2CC2)c2cc(N3CCC(N4CCCCC4)CC3)c(F)cc2c1=O | ATCC35801 |  | MIC |  |  | 0.94 µM
Cc1nn(C(=S)S)c(C)c1N=Nc1ccccc1C(F)(F)F | H37Rv | resazurin | MIC bound |  |  | >6.25 µg/mL
CC(=O)Nc1ccc(C(N)=S)cc1 | H37Rv (INH-resistant) |  | MIC |  |  | 512 µM
COc1c(C(C)=O)cc(N)c2nc(C(C)(C)C)ccc12 | H37Rv |  | MIC |  |  | >6.25 µg/mL
Cc1ccn2nc(S(=O)(=O)Nc3c(Br)ccc4cccnc34)nc2n1 | X24 | visual reading | MIC50 |  | INH RIF resistant | 0.5 µM
CCOc1ncn(-c2ccc(NC(=S)Nc3cnccn3)cc2)n1 | H37Rv | BACTEC | inhibition | 12.5 µg/mL |  | 56%
NCC[C@H](O)C(=O)N[C@@H]1C[C@H](N)[C@@H](O[C@H]2O[C@H](CN)[C@@H](O)[C@H](O)[C@H]2O)[C@H](O)[C@H]1O[C@H]1O[C@H](CO)[C@@H](O)[C@H](N)[C@H]1O | H37Rv |  | Median MIC |  |  | 0.47 µg/mL
CCCCCCCCN1C(=O)CSC12CCCCC2 | H37Ra | resazurin | inhibition | 25 µg/mL |  | 96%
COc1ccc(CCC2CCc3ccccc3N2C)cc1OC | MT2 |  | MIC |  |  | >100 µg/mL
CN=C(N=Nc1c(O)[nH]c2ccccc12)SCC(=O)c1ccccc1 | H37Rv |  | EC50 |  |  | <12 µg/mL
NC[C@H]1O[C@H](O[C@H]2[C@H](O)[C@@H](O[C@H]3O[C@H](CO)[C@@H](O)[C@H](N)[C@H]3O)[C@H](N)C[C@@H]2N)[C@H](O)[C@@H](O)[C@@H]1O | H37Ra |  | Mean MIC |  |  | 2.5 µg/mL
CCCCCCCCCCCCN1C(=O)C(CC(=O)O)SC12CCCCC2 | H37Ra | resazurin | EC50 |  |  | <25 µg/mL
CC(C)c1cc(C(C)C)c2cccc([N+](=O)[O-])c2n1 | H37Rv |  | MIC |  |  | >6.25 µg/mL
NC(=O)c1cnccn1 | ATCC 35828 |  | MIC |  |  | >900 µg/mL

An empty or dashed field is not shown. Two numbers with a dash give a range or band. ECn is the concentration giving n% inhibition of infection, replication or growth. Rows are shuffled and stem from different studies. MIC bound: limit read from a one-dose screen. A number after MIC or MFC names an inhibition level or a share of isolates.